Anti-infective test results gathered from many reports (values: NIAID ChemDB through PubChem).

All rows: whole-cell or culture tests

Inhibition is in % at the dose shown (toxicity tests: loss of growth or viability). Lines come from different laboratories, so protocols vary. An empty or dashed field is not shown. ECn: concentration that inhibits the pathogen or its effect by n%.

smiles	tested at	agent	cell line	endpoint	method	strain	value
OC[C@H]1O[C@@H](n2c(Br)nc3cc(Cl)c(Cl)cc32)[C@H](O)[C@@H]1O	-	Human cytomegalovirus	-	EC50	virus yield	R56	<3 µM
Nc1nc2c(ncn2COC(CO)CO)c(=O)[nH]1	-	Human cytomegalovirus	MRC-5	EC50	hybridisation	9330REC5 (HIS520GLU)	1.6 µM
Nc1nc2c(ncn2C[C@]2(CO)C[C@H]2CO)c(=O)[nH]1	-	Human herpesvirus 6	MOLT-3	EC50	-	TYPE 6B	3.5 µg/mL
N#CC1C(c2ccc(Cl)cc2)Nc2sccc2S1(=O)=O	-	Human herpesvirus 6	HSB-2	EC50	hybridisation	GS (TYPE 6A)	2.9 µg/mL
Cn1cc(C(=O)NCc2ccc(Cl)cc2)c(=O)c2cc(CN3CCOCC3)ccc21	5.2 µM	Human cytomegalovirus	HFF	inhibition	plaque count	GR	90%
CC(=O)N[C@@H](CC(C)C)C(=O)N[C@@H](CC(C)C)C(=O)N[C@H](C=O)CCCN=C(N)N	2 µg/mL	Human coronavirus	MRC-C	inhibition	plaque count	229E 229E	100%
Nc1ccn([C@@H]2C=C(CO)[C@@H](O)[C@H]2O)c(=O)n1	-	Human coronavirus	WI-38	EC50	cytopathic effect	Strain 229E 229E	10 µg/mL
Nc1nc2c(ncn2[C@@H]2C[C@H](CO)[C@H]2CO)c(=O)[nH]1	-	Human herpesvirus 7	SupT1	EC50	syncytia	-	3.4 µM
Nc1ccn(C[C@H]2COP(=O)(O)CO2)c(=O)n1.O=C(O)P(=O)(O)O	-	Human cytomegalovirus	MRC-5	EC75	plaque count	PC92 (ganciclovir- foscarnet-susceptible)	1.06 µM
O=c1[nH]c(=O)n([C@H]2C[C@H](O)[C@@H](CO)O2)cc1/C=C/Br	-	Human herpesvirus 7	CD4+ T lymphocytes	EC50	syncytia	-	>90 µM
Nc1ccn(C[C@@H](CO)OCP(=O)(O)O)c(=O)n1	-	Human cytomegalovirus	MRC-5	EC75	plaque count	AD169 (ganciclovir foscarnet-susceptible)	0.5 µM
OC[C@H]1O[C@@H](n2c(Br)nc3cc(Cl)c(Cl)cc32)[C@H](O)[C@@H]1O	-	Human cytomegalovirus	MRC-5	EC50	hybridisation	8805REC1 (MET460VAL)	2 µM
Nc1nc2c(ncn2CCC(CO)CO)c(=O)[nH]1	5 µM	Human herpesvirus 7	HUMAN CORD BLOOD CELLS	inhibition	antigen	SB	21%
Nc1nc2c(ncn2[C@@H]2C[C@H](CO)[C@H]2CO)c(=O)[nH]1	-	Human cytomegalovirus	MRC-5	EC75	plaque count	PC92 (ganciclovir- foscarnet-susceptible)	6.39 µM
Nc1nc2c(ncn2COC(CO)CO)c(=O)[nH]1	-	Human herpesvirus 7	CD4+ T lymphocytes	EC50	syncytia	-	10.7 µM
N#CC1C(c2ccc(Cl)cc2)Nc2ccccc2S1(=O)=O	-	Human herpesvirus 6	HSB-2	EC50	cytopathic effect	GS (TYPE 6A)	0.4 µg/mL
Nc1nc2c(ncn2[C@@H]2C[C@H](CO)[C@H]2CO)c(=O)[nH]1.O=C(O)P(=O)(O)O	-	Human cytomegalovirus	MRC-5	EC75	plaque count	Towne (ganciclovir- foscarnet-susceptible)	0.93 µM
C=C1[C@H](CO)[C@@H](O)C[C@@H]1n1cnc2c(=O)[nH]c(N)nc21	-	Human papillomavirus	WI-38	EC50	plaque count	-	3 µM
N#CC1=C(c2ccccc2)Nc2sccc2S1(=O)=O	-	Human herpesvirus 6	HSB-2	EC50	cytopathic effect	GS (TYPE 6A)	>20 µg/mL
NC(=O)c1c(Cl)c(-c2cccnc2)n2c1CCCC2	-	Human herpesvirus 7	SupT1	EC50	-	HRK	0.0143 µM
Nc1nc2c(ncn2C=C2CC2CO)c(=O)[nH]1	-	Human cytomegalovirus	-	EC90	plaque count	VR5406 (ganciclovir-resistant)	4.9 µM
NC1=NC2C(C=CN2CC(CO)CCO)C(=O)N1	-	Human herpesvirus 7	SupT1	EC50	syncytia	-	>107 µM

The first 3 rows once more:

smiles	tested at	agent	cell line	endpoint	method	strain	value
OC[C@H]1O[C@@H](n2c(Br)nc3cc(Cl)c(Cl)cc32)[C@H](O)[C@@H]1O	-	Human cytomegalovirus	-	EC50	virus yield	R56	<3 µM
Nc1nc2c(ncn2COC(CO)CO)c(=O)[nH]1	-	Human cytomegalovirus	MRC-5	EC50	hybridisation	9330REC5 (HIS520GLU)	1.6 µM
Nc1nc2c(ncn2C[C@]2(CO)C[C@H]2CO)c(=O)[nH]1	-	Human herpesvirus 6	MOLT-3	EC50	-	TYPE 6B	3.5 µg/mL